{"source": "paper PMC4485437", "about": "(Biochemistry, 2015)", "experiment_in_all_cases": "Ki determination for transition-state analogues", "type_in_all_cases": "biochemical", "conditions_in_all_cases": "read-out: Ki,MTDIA; 0.8 mM MTA", "key": {"[1]": {"target": "VcMTANA113P (Vibrio cholerae serotype O1, UniProt Q9KPI8, A113P)"}, "[2]": {"target": "VcMTANA113P/V153I (VcMTANDOUBLE) (Vibrio cholerae serotype O1, UniProt Q9KPI8, A113P/V153I)"}, "[3]": {"target": "VcMTANA113P/V153I/R158G (Vc[…]) (Vibrio cholerae serotype O1, UniProt Q9KPI8, A113P/R158G/V153I)"}}, "data": [{"compound": "CSC[C@H]1CN(Cc2c[nH]c3c(N)ncnc23)C[C@@H]1O", "note": "[MTDIA, 4′-deaza-1′-aza-2′-deoxy-1′-(9-[^14C]methylene)-Immucillin-A]", "values": [{"measurement": "Ki", "setting": "[1]", "value": "0.062 ± 0.007", "unit": "nM"}, {"measurement": "Ki", "setting": "[2]", "value": "0.003 ± 0.0005", "unit": "nM"}, {"measurement": "Ki", "setting": "[3]", "value": "0.166 ± 0.022", "unit": "nM"}]}]}
